Pooled drug test results. Numbers come from NIAID ChemDB, via PubChem.

All rows: cytotoxicity tests; measure: CC50

Two numbers with a dash give a range or band.

structure | cells | method | conditions | value
COC(=O)C1C(OC(C)=O)C(C)C(O)C(C)(O)/C=C(\C)C2=C3C(=C(C)C(=O)c4c(O)c(c(C)c(OC(C)=O)c43)NC(=O)/C(C)=C/C=C\[C@](C)(O)C(O)[C@@H](C)C1O)OCO2 | VERO | - | - | 24.6 µg/mL
CC(C)CCC[C@@H](C)[C@H]1CC[C@H]2[C@@H]3C(=O)C[C@H]4C[C@@H](O)CC[C@]4(C)[C@H]3CC[C@]12C | Vero cells | tetrazolium | - | 62 µM
Cc1ccc(NCCN(C)C)c2c(=O)c3ccc(O)cc3sc12 | VERO | - | - | <0.51 µg/mL
Nc1ncnc2c1ncn2[C@H]1CC[C@@H](CO)O1 | HB611 | trypan blue | - | >200 µg/mL
Fc1ccccc1Cn1cc(/C=N/Nc2nncs2)c2ccccc21 | Fibroblast L929 cell line | MTT | 24 h | >100 µg/mL
COc1ccc(N2C(=O)C(O)=C(C(=O)/C=C/c3ccccc3)C2c2ccc(Cl)cc2)cc1 | GHOST R5 | - | - | 56 µM
CCN(CC)C(=S)[S][Sn]([S]C(=S)N(CC)CC)([c]1ccccc1)[c]1ccccc1 | VERO | - | - | 0.42 µg/mL
C[C@@]12C(=O)OC(=O)[C@]1(C)[C@H]1CC[C@@H]2O1 | EBTR | - | - | 50 µM
CCCCCCCCC/C=N/Nc1ccc([N+](=O)[O-])cn1 | VERO | - | - | >10 µg/mL
NNC(=O)c1ccncc1 | RAW 264.7 | resazurin / fluorescence | - | 3000 µg/mL
CC(=O)O[C@H]1C(=O)[C@@]2(C)[C@H]([C@H](OC(=O)c3ccccc3)[C@]3(O)C[C@H](OC(=O)[C@H](O)[C@@H](NC(=O)c4ccccc4)c4ccccc4)C(C)=C1C3(C)C)[C@]1(OC(C)=O)CO[C@@H]1C[C@@H]2O | HCT116 | MTT | - | 0.1279 µg/mL
O=S(=O)(c1ccccc1)n1cc(/C=N/Nc2nncs2)c2ccccc21 | Fibroblast L929 cell line | MTT | 24 h | >100 µg/mL
CC(=O)O[C@H]1CC[C@@]2(C)C(=CC[C@H]3[C@@H]4CC[C@H]([C@H](C)CCCC(C)(C)O)[C@@]4(C)CC[C@@H]32)C1 | Vero cells | tetrazolium | - | >128 µM
Nc1ccn(C[C@@H](CO)OCP(=O)(O)O)c(=O)n1 | HB611 | trypan blue | - | 60 µg/mL
O=C1C(=O)N(c2ccccc2)C(c2cccc([N+](=O)[O-])c2)/C1=C(\O)c1ccccc1 | GHOST R5 | - | - | 58 µM
CCCCC#CCSc1ccccc1OC(C)=O | CrFK | MTT | - | >100 µM
COc1ccc(N2C(=O)C(O)=C(C(=O)/C=C/c3ccccc3)C2c2ccc([N+](=O)[O-])cc2)cc1 | GHOST R5 | - | - | >100 µM
COc1cc([C@H]2OC[C@H]3[C@@H]2CO[C@H]3c2cc(OC)c3c(c2)OCO3)cc2c1OCO2 | HOG.R5 | - | - | >20 µg/mL
CC1=C(/C=C/C(C)=N/NC(=O)c2ccncc2)C(C)(C)CCC1 | VERO | - | - | 12 µg/mL
Nc1nc(=O)n([C@@H]2CS[C@H](CO)O2)cc1F | CFU-GM | - | - | 300 µM
O=C(/C=C/c1ccccc1)C1=C(O)C(=O)N(c2ccccc2)C1c1cccc([N+](=O)[O-])c1 | GHOST R5 | - | - | >100 µM
CC(/C=C/c1ccco1)=N\NC(=O)c1ccncc1 | VERO | - | - | 28 µg/mL
Nc1ncnc2c1ncn2C[C@@H](CO)OCP(=O)(O)O | HEF | - | - | 52 µg/mL
Nc1ncnc2c1ncn2CCOCP(=O)(O)O | Feline thymocyte | MTT | - | 7 µM
O=C(NNC(=S)Nc1cccc(Cl)c1)c1ccncc1 | VERO | - | - | >62.5 µg/mL
CO[C@H]1/C=C/O[C@@]2(C)Oc3c(C)c(O)c4c(O)c(c(/C=N/N5CCN(C)CC5)c(O)c4c3C2=O)NC(=O)/C(C)=C\C=C\[C@H](C)[C@H](O)[C@@H](C)[C@@H](O)[C@@H](C)[C@H](OC(C)=O)[C@@H]1C | RAW 264.7 | resazurin / fluorescence | - | 700 µg/mL
Oc1ccc(Br)cc1-c1nc2cc(Cl)c(Cl)cc2nc1-c1cc(Br)ccc1O | VERO | - | - | 3 µg/mL
Cc1cc(NS(=O)(=O)c2ccc(N3C(=O)CSC3c3ccc(Cl)cc3)cc2)no1 | HCT116 | MTT | - | >100 µg/mL
CO[C@H]1/C=C/O[C@@]2(C)Oc3c(C)c(O)c4c(c3C2=O)C(=O)C=C(NC(=O)/C(C)=C\C=C\[C@H](C)[C@H]2OC(C)(C)O[C@@H]([C@@H](C)[C@H](OC(C)=O)[C@@H]1C)[C@@H]2C)C4=O | VERO | - | - | 4.06 µg/mL
Clc1ccc(Cn2cc(/C=N/Nc3nncs3)c3ccccc32)cc1 | Fibroblast L929 cell line | MTT | 24 h | >100 µg/mL
CC(Cc1ccccc1)N(C)Cc1ccc(-c2ccc(Cl)cc2)o1 | VERO | - | - | 23.35 µg/mL
NC12CC3CC(CC(C3)C1)C2 | 161-Br | - | - | 40–1000 µM
Nc1ncnc2c1ncn2CCOCP(=O)(O)O | HB611 | trypan blue | - | 29 µg/mL
Cc1cccc(/C=N/Nc2cc(C)c3ccccc3n2)n1 | VERO | - | - | 7.4 µg/mL
N#Cc1cccc(Cn2cc(/C=N/Nc3nncs3)c3ccccc32)c1 | Fibroblast L929 cell line | MTT | 24 h | >100 µg/mL
CO[C@H]1/C=C/O[C@@]2(C)Oc3c(C)c(O)c4c(c3C2=O)C(=O)c2cnc(nc2C4=O)/C(C)=C\C=C\[C@H](C)[C@H](O)[C@@H](C)[C@@H](O)[C@@H](C)[C@H](OC(C)=O)[C@@H]1C | VERO | - | - | 4.59 µg/mL
[N-]=[N+]=N[C@H]1[C@@H](O)[C@H](n2cnc3c(N)nccc32)O[C@@H]1CO | HEF | - | - | 26 µg/mL
CC(=O)O[C@H]1CC[C@@]2(C)C(=CC(=O)[C@H]3[C@@H]4CC[C@H]([C@H](C)CCCC(C)C)[C@@]4(C)CC[C@@H]32)C1 | Vero cells | tetrazolium | - | >128 µM
Cc1cc(NS(=O)(=O)c2ccc(N3C(=O)CSC3c3ccc(F)cc3)cc2)no1 | HCT116 | MTT | - | >100 µg/mL
Cl.FC(F)(F)c1ccc2c(c1)N(CCCNCCN1CCOCC1)c1ccccc1S2 | VERO | - | - | 3.1 µg/mL
CC(C)CCC[C@@H](C)[C@H]1CC[C@H]2[C@@H]3[C@H](F)[C@@H](O)[C@H]4C[C@@H](O)CC[C@]4(C)[C@H]3CC[C@]12C | Vero cells | tetrazolium | - | 41 µM
Nc1nc(=O)n([C@@H]2CC[C@H](CO)O2)cc1F | BFU-E | - | - | 10 µM
O=C1C(=O)c2cccnc2-c2ncccc21 | VERO | - | - | 3 µg/mL
C[C@H](CCCC(C)(C)O)[C@H]1CC[C@H]2[C@@H]3[C@@H](O)C[C@H]4C[C@@H](O)CC[C@]4(C)[C@H]3CC[C@]12C | Vero cells | tetrazolium | - | >128 µM
CCN(CC)c1ccc(N=C2C=CC(=O)C(NC(C)=O)=C2)c(C)c1 | VERO | - | - | 4.1 µg/mL
COc1ccc(-c2cc(OC)c(O)c(OC)c2O)cc1 | MCF-7 | sulforhodamine / absorbance | - | >50 µM
Cn1cc(NC(=O)c2cc(NC(=O)CCCCCCCC(=O)Nc3cc(C(=O)Nc4cc(C(=O)NCCC(N)=[NH2+])n(C)c4)n(C)c3)cn2C)cc1C(=O)NCCC(N)=[NH2+] | VERO | - | - | 195 µg/mL
CC(C)CCC[C@@H](C)[C@H]1CC[C@H]2[C@@H]3[C@H](F)C(=O)[C@H]4C[C@@H](O)CC[C@]4(C)[C@H]3CC[C@]12C | Vero cells | tetrazolium | - | 40 µM

The last 3 rows once more:

structure,cells,method,conditions,value
COc1ccc(-c2cc(OC)c(O)c(OC)c2O)cc1,MCF-7,sulforhodamine / absorbance,-,>50 µM
Cn1cc(NC(=O)c2cc(NC(=O)CCCCCCCC(=O)Nc3cc(C(=O)Nc4cc(C(=O)NCCC(N)=[NH2+])n(C)c4)n(C)c3)cn2C)cc1C(=O)NCCC(N)=[NH2+],VERO,-,-,195 µg/mL
CC(C)CCC[C@@H](C)[C@H]1CC[C@H]2[C@@H]3[C@H](F)C(=O)[C@H]4C[C@@H](O)CC[C@]4(C)[C@H]3CC[C@]12C,Vero cells,tetrazolium,-,40 µM

An empty or dashed field is not shown. CCn: concentration that lowers growth or viability of the cells by n%. Rows are shuffled and stem from different studies.